Paper PMC3531487, “An Allele of an Ancestral Transcription Factor Dependent on a Horizontally Acquired Gene Product” (PLoS Genetics, 2012)
Where a protein sequence is shown, tags need not be part of it.

Target: T1, PmrA (G211)-P (Salmonella enterica serovar Typhimurium) (UniProt P36556)
T1 sequence (looked up): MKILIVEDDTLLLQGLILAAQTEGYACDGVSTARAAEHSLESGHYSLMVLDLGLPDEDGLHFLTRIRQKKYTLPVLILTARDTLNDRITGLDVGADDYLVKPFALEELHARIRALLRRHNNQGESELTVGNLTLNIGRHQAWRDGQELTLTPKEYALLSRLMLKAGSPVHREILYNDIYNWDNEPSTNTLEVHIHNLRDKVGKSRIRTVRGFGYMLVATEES
Assay: EMSA
Details: phosphorylated PmrA, 0-300 pmol in 30 ul, 2 mM MgCl2, poly(dI-dC); recombinant protein; residues 1-222; protein details: C-terminal His6; label: 32P 5' end (T4 PNK), unlabeled as cold competitor; probe letters rebuilt from the primers and the genome

“TCGCCGGACGGGAGAAAGGCAAAAAGTCCGACATCATTTTTCCTTCAGCCATTGAAAGCCGCTTTTCAAATATTTCGGCAATAGAAAAGGGCTTATTTTTTAACGCATTTAGCTGAACCCTACTGGATGAAGATTAAATTAACATTAAGAAATTAAGGTGAAGTAAAAAGATAATTTTTAACGGAATTATGCTTTGCTTTCGCCGAAAGTTTAAGGCATTTTATGCATGCCCAAAAGCTGTTTTTATGTTTCTGGCCTGGTCTTCCGTTGCGGAATTTCATTTTAATTGTATTGCTATTAAGTTAGCTGCACTGTCTGCCTGAGAGGTTAATG (double strand) [pbgP promoter fragment]”: binds.
